Laboratory results: PubChem BioAssay AID1259414 (Drosophila RNAi Screening Center, 2018)
The screen tested about 24,000 reagents; below is an unselected part of those that have a named target and a result. Of all reagents, about 1,210 (5%) were called active. 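Inactive calls also include excluded dsRNAs with several or no targets, genes unexpressed in JW18, and well A1, regardless of score.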 A number with no mark means an inactive call. Reagents against one gene are numbered here. A plus sign joins genes that one reagent is predicted to hit.

Aim: 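Genome-wide screen for host control of endosymbiont load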 (primary screen)
Cells: Drosophila JW18 cells infected with Wolbachia
Knock-down reagent: long dsRNA against Drosophila genes, 0.25 µg dsRNA per well of a 384-well plate
Duration: 5 days
Treatment: cells persistently infected with Wolbachia before knock-down; no added drug
Read-out: 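Imaged fluorescence in situ signal for Wolbachia 23S rRNA per DAPI-counted host cell, given as a robust z-score within each plate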
Reading the numbers: Wolbachia per cell robust z: higher = more Wolbachia per host cell than the plate typical
Active means: 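Active if absolute robust z reaches 1.5 in two or more of three replicates, leaving out multi- or no-target dsRNAs, genes unexpressed in JW18 and A1 wells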

With knock-down of akirin #1 the results were Wolbachia per cell robust z, rep 1 = 1.85 (active); Wolbachia per cell robust z, rep 2 = 2.73; Wolbachia per cell robust z, rep 3 = 3.13.
Silencing of akirin #2 gave: Wolbachia per cell robust z, rep 1 = 0.44 (active); Wolbachia per cell robust z, rep 2 = 1.76; Wolbachia per cell robust z, rep 3 = 1.61.
For CG13039 the deposit lists Wolbachia per cell robust z, rep 1 = -0.232; Wolbachia per cell robust z, rep 2 = -0.164; Wolbachia per cell robust z, rep 3 = -0.716.
After knock-down of nito the results were Wolbachia per cell robust z, rep 1 = 0.252; Wolbachia per cell robust z, rep 2 = 1.59; Wolbachia per cell robust z, rep 3 = 0.694.
With knock-down of Lcp2 #1 the results were Wolbachia per cell robust z, rep 1 = -1.04; Wolbachia per cell robust z, rep 2 = -0.925; Wolbachia per cell robust z, rep 3 = 1.31.
Against Lcp2 #2 the deposit lists Wolbachia per cell robust z, rep 1 = -1.59; Wolbachia per cell robust z, rep 2 = -2.45; Wolbachia per cell robust z, rep 3 = 0.799.
CG7091 #1 gave Wolbachia per cell robust z, rep 1 = 1.15; Wolbachia per cell robust z, rep 2 = 0.218; Wolbachia per cell robust z, rep 3 = 0.777.
Depletion of CG7091 #2 gave: Wolbachia per cell robust z, rep 1 = 0.167; Wolbachia per cell robust z, rep 2 = 0.562; Wolbachia per cell robust z, rep 3 = 0.672.

Reagents listed so far called active (2):
akirin #1 | Wolbachia per cell robust z, rep 1: 1.85 (active); Wolbachia per cell robust z, rep 2: 2.73; Wolbachia per cell robust z, rep 3: 3.13
akirin #2 | Wolbachia per cell robust z, rep 1: 0.44 (active); Wolbachia per cell robust z, rep 2: 1.76; Wolbachia per cell robust z, rep 3: 1.61

Additional records follow:
After knock-down of RASSF8 #1, the record shows Wolbachia per cell robust z, rep 1 = 0.709; Wolbachia per cell robust z, rep 2 = 1.35; Wolbachia per cell robust z, rep 3 = -0.378.
Silencing of RASSF8 #2 resulted in: Wolbachia per cell robust z, rep 1 = 1.13; Wolbachia per cell robust z, rep 2 = 0.769; Wolbachia per cell robust z, rep 3 = 0.612.
Depletion of CG33225 resulted in: Wolbachia per cell robust z, rep 1 = 0.716; Wolbachia per cell robust z, rep 2 = -2.74; Wolbachia per cell robust z, rep 3 = 1.96.
After knock-down of CG32473 #1, the screen gave Wolbachia per cell robust z, rep 1 = -4.63; Wolbachia per cell robust z, rep 2 = 0.447; Wolbachia per cell robust z, rep 3 = 0.234.
Against CG32473 #2, the entry reads Wolbachia per cell robust z, rep 1 = 0.483; Wolbachia per cell robust z, rep 2 = -0.582; Wolbachia per cell robust z, rep 3 = -0.115.
Silencing of CG12560 came out at: Wolbachia per cell robust z, rep 1 = 0.392; Wolbachia per cell robust z, rep 2 = 0.0918; Wolbachia per cell robust z, rep 3 = -0.687.
CG18596 scored Wolbachia per cell robust z, rep 1 = 1.01; Wolbachia per cell robust z, rep 2 = 1.92; Wolbachia per cell robust z, rep 3 = 1.4.
With knock-down of CG12016 + Dpm2 the results were Wolbachia per cell robust z, rep 1 = 0.0438; Wolbachia per cell robust z, rep 2 = 0.967; Wolbachia per cell robust z, rep 3 = 0.337.
